Pooled drug test results. Numbers come from NIAID ChemDB, via PubChem.

Common to all: tests in culture; agent: Hepatitis B virus; read-out: EC50

ECn is the concentration giving n% inhibition of infection, replication or growth.

smiles,strain,cells,method,value
CCOC(=O)[C@H](C)NP(=O)(OC[C@@H]1OC[C@H](n2cnc3c(Cl)nc(N)nc32)O1)Oc1ccccc1,Wild,AD38,-,0.8 µM
COC(=O)c1cc2c(OC)cc(N)cc2o1,-,-,-,4.19 µg/mL
CCOC(=O)C1=C(CN2CC(F)(F)[C@H]3[C@@H]2CCN3C[C@](C)(O)C(=O)O)NC(c2nccs2)=N[C@H]1c1cccc(F)c1F,-,HepG2.2.15,PCR,0.021 µM
COC(=O)CCC1=C(C(=O)OC)C(c2ccccc2Cl)N=C(c2ccccn2)N1,-,HepG2.2.15,-,>100 µM
COC(=O)c1cccc(CNC(=O)c2c3n(c(=O)n2-c2ccc(OC)cc2)CCN(C(=O)c2ccc(Br)c(Cl)c2)C3)c1,-,HepG2.117,PCR,0.1–0.5 µM
Cc1cc(NC(=O)c2c3c(cn2C)S(=O)(=O)N[C@H]2CN(C(=O)C(=O)NC4(C)CC4)C[C@H]2CO3)ccc1F,-,HepAD38,PCR,<0.5 µM
Cc1cnnn1-c1ccc(-n2c(=O)c3c(n4ncc(Cc5ccccc5)c24)CN(C(=O)c2ccc(Br)c(C(F)(F)F)c2)CC3)cc1,-,HepG2.117,luminescence,≤0.05 µM
CCOC(=O)C1=C(CN2CC(F)(F)[C@H]3[C@@H]2CCN3C[C@@H](OC)C(C)(C)C(=O)O)NC(c2nc(C)cs2)=N[C@H]1c1cccc(F)c1C,-,HepG2.2.15,PCR,0.002 µM
Cn1nc2cc(NS(=O)(=O)[C@]34CC[C@H](CC3=O)C4(C)C)ccc2c1C(=O)Nc1ccc(F)c(Cl)c1,-,HepAD38,PCR,100–1000 µM
Cc1cc(NC(=O)c2c3c(cn2C)S(=O)(=O)NC2CN(C(=O)C(=O)NCC(F)(F)F)CCC2CO3)ccc1F,-,HepAD38,PCR,<0.5 µM
COC(=O)Cc1ccc2c(OC)cc(N)cc2n1,-,-,-,0.13 µg/mL
Cn1nc2cc(NCS(=O)(=O)C3CC3)ccc2c1C(=O)Nc1ccc(F)c(Cl)c1,-,HepAD38,PCR,100–1000 µM
Nc1cn(COCCO)c(=O)[nH]c1=O,Mutations L180M M204V,D88,-,30 µM
Cn1nc2cc(NS(=O)(=O)c3cnn(-c4ncccc4C4CC4)c3)ccc2c1C(=O)Nc1ccc(F)c(Cl)c1,-,HepAD38,PCR,100–1000 µM
Cc1nc(-c2ccc(-n3c(=O)c4c(n5ncc(Cc6ccccc6)c35)CN(C(=O)c3ccc(Br)c(Cl)c3)[C@H](C)C4)cc2)n[nH]1,-,HepG2.117,luminescence,≤0.05 µM
Cn1nc2ccc(NC(=O)OCc3ccncc3)cc2c1C(=O)Nc1ccc(F)c(Cl)c1,-,HepAD38,PCR,100–1000 µM
COC(=O)C1=C(C=O)NC(c2ccccn2)=NC1c1ccccc1Cl,-,HepG2.2.15,-,>12 µM
COC(=O)c1cc(=O)c2c(OC)cc(N)cc2[nH]1,-,-,-,0.1 µg/mL
COC(=O)C1=C(C)N(CC(=O)O)C(c2ccccn2)=NC1c1ccccc1Cl,-,HepG2.2.15,-,>100 µM
CC(C)Oc1ccc(-n2c(C(=O)NCc3ccccc3)c3n(c2=O)CCN(C(=O)c2ccc(Br)c(C#N)c2)C3)cc1,-,HepG2.117,PCR,0.5–5 µM
CC(C)Cc1cnn2c3c(c(=O)n(-c4ccc(-c5n[nH]c(=O)n5C)cc4)c12)C[C@H](C)N(C(=O)c1ccc(Br)c(C(F)(F)F)c1)C3,-,HepG2.117,luminescence,0.05–0.5 µM
Cn1cc2c(c1C(=O)Nc1ccc(F)c(Cl)c1)OCC1(CN(C(=O)C(=O)N3CC(F)(F)C3)C1)NS2(=O)=O,Genotype D,HepAD38,PCR,<0.5 µM
COc1ccc([C@@H](C)NC(=O)c2c3n(c(=O)n2-c2ccc(OC4CC4)cc2)CCN(C(=O)c2ccc(Br)c(Cl)c2)C3)cc1,-,HepG2.117,PCR,0.1–0.5 µM
CCOC(=O)[C@H](C)NP(=O)(OC[C@@H]1OC[C@H](n2cnc3c(=O)[nH]c(N)nc32)O1)Oc1ccccc1,Wild,AD38,-,0.1 µM
O=C(NCc1cccc2cccnc12)c1c2n(c(=O)n1-c1ccc(OCC(F)(F)F)cc1)CCN(C(=O)c1ccc(Br)c(Cl)c1)C2,-,HepG2.117,PCR,0.1–0.5 µM
C[C@@H](NC(=O)C(=O)N1CC2(COc3c(c(Cl)n(C)c3C(=O)Nc3ccc(F)c(Cl)c3)S(=O)(=O)N2)C1)C(F)(F)F,Genotype D,HepAD38,PCR,<0.5 µM
COc1cc(N)cc2[nH]c(N)cc(=O)c12,-,-,-,0.1 µg/mL
Cc1cc(NC(=O)c2c3c(cn2C)S(=O)(=O)N[C@H]2CN(C(=O)C(=O)N[C@H](C)C(F)(F)F)C[C@H]2CO3)ccc1F,Genotype C,HepG2,PCR,0.00072 µM
COP(=O)(OC)OCN(C)C(=O)c1ccc(-n2c(=O)c3c(n4ncc(CC5CC5)c24)CN(C(=O)c2ccc(Br)c(C(F)(F)F)c2)[C@@H](C)C3)cc1,-,HepG2.117,luminescence,>5 µM
CCOC(=O)C1=C(CN2CC(F)(F)[C@@H]3[C@H]2CON3C[C@H](O)[C@@H](CC)C(=O)O)NC(c2nccs2)=N[C@H]1c1cccc(F)c1C,-,HepG2.2.15,PCR,0.051 µM
COC(=O)C1=C(C)NC(c2ccc(F)cn2)=N[C@H]1c1ccc(F)cc1Cl,-,HepG2.2.15,-,0.1 µM
CCOC(=O)[C@H](C)NP(=O)(OC[C@@H]1OC[C@H](n2cnc3c(NC4CC4)nc(N)nc32)O1)Oc1ccccc1,Wild,AD38,-,<10 µM
COC(=O)C1=C(C)N(C(C)=O)C(c2ccccn2)=NC1c1ccccc1Cl,-,HepG2.2.15,-,12 µM
COC(=O)c1cc2ccc(N)cc2[nH]1,-,-,-,0.31 µg/mL
Cc1n[nH]nc1-c1ccc(-n2c(=O)c3c(n4ncc(CC(C)C)c24)CN(C(=O)c2ccc(Br)c(C(F)(F)F)c2)[C@@H](C)C3)cc1,-,HepG2.117,luminescence,0.05–0.5 µM
C[C@@H](NC(=O)C(=O)N1CC[C@@]2(COc3c(cn(C)c3C(=O)Nc3ccc(F)c(Cl)c3)S(=O)(=O)N2)C1)C(F)(F)F,Genotype D,HepAD38,PCR,<0.5 µM
COc1ccc(-n2c(C(=O)N[C@H](C)C3CC3)c3n(c2=O)CCN(C(=O)c2ccc(Cl)c(Cl)c2)C3)cc1,-,HepG2.117,PCR,>5 µM
Cc1cc(NC(=O)c2c3c(cn2C)S(=O)(=O)N[C@H]2CN(C(=O)C(=O)NC4CC(F)(F)C4)C[C@H]2CS3)ccc1F,-,HepAD38,PCR,<0.5 µM
CCc1cn(COCCO)c(=S)[nH]c1=O,Mutation M204I,B1,-,20 µM
CCOC(=O)C1=C(CN2CC(F)(F)[C@@H]3[C@H]2CON3C[C@@H](F)CC(C)(C)C(=O)O)NC(c2nccs2)=N[C@H]1c1cccc(F)c1C,-,HepG2.2.15,PCR,0.009 µM
CC(C)Cc1cnn2c3c(c(=O)n(-c4ccc(-c5cnnn5C)cc4)c12)C[C@H](C)N(C(=O)c1ccc(Br)c(C(F)(F)F)c1)C3,-,HepG2.117,luminescence,0.05–0.5 µM
Cn1nc2nc(NS(=O)(=O)C3CC3)ncc2c1C(=O)Nc1ccc(F)c(Cl)c1,-,HepAD38,PCR,>1000 µM
O=c1[nH]c(=O)n(COCCO)cc1C(F)(F)F,Mutations L180M M204V,D88,-,50 µM
CCOC(=O)C1=C(CN2CC(F)(F)[C@H]3[C@@H]2CCN3C[C@@](C)(F)C(=O)O)NC(c2nccs2)=N[C@H]1c1cccc(F)c1C,-,HepG2.2.15,PCR,0.0065 µM
O=c1[nH]c(=O)n(COCCO)cc1Br,Mutation M204I,B1,-,67 µM
CCNC(=O)CCC1=C(C(=O)OC)C(c2ccccc2Cl)N=C(c2ccccn2)N1,-,HepG2.2.15,-,12–25 µM
CCOC(=O)C1=C(CN2CC(F)(F)[C@@H]3[C@H]2CON3[C@@H](C)[C@@H](O)C(C)(C)C(=O)O)NC(c2nccs2)=N[C@H]1c1cccc(F)c1C,-,HepG2.2.15,PCR,0.036 µM
COc1ccc(-n2c(C(=O)NCc3ccccn3)c3n(c2=O)CCN(C(=O)c2ccc(Br)c(Cl)c2)C3)cc1,-,HepG2.117,PCR,0.5–5 µM
Cn1nc2cc(NS(=O)(=O)c3cnn(-c4ccc(F)cn4)c3)ccc2c1C(=O)Nc1ccc(F)c(Cl)c1,-,HepAD38,PCR,<100 µM
O=c1[nH]c(=O)n(COC(CO)CO)cc1Cl,Mutant M204I,B1,-,56 µg/mL
Cn1nc2cc(NS(=O)(=O)c3cnn(-c4ncccn4)c3)ccc2c1C(=O)Nc1ccc(F)c(Cl)c1,-,HepAD38,PCR,<100 µM
CNC(=O)c1ccc(-n2c(=O)c3c(n4ncc(CC5CCC5)c24)CN(C(=O)c2ccc(Br)c(Cl)c2)CC3)cc1,-,HepG2.117,luminescence,≤0.05 µM
CC1=C(C(=O)NC2CC2)C(c2ccccc2Cl)N=C(c2ccccn2)N1,-,HepG2.2.15,-,>100 µM
Cn1nc2cc(NS(=O)(=O)NCc3cccc(NC(=O)OC(C)(C)C)n3)ccc2c1C(=O)Nc1ccc(F)c(Cl)c1,-,HepAD38,PCR,100–1000 µM

Blank or dashed fields: not listed here. Rows are shuffled and stem from different studies. Two numbers with a dash give a range or band.